From paper PMC5862516 (PLoS Neglected Tropical Diseases, 2018)

Tested on: SOSV minigenome
Conditions: CC50 divided by EC50

SMILES | Minigenome Screen SI
O=c1cnn([C@@H]2O[C@H](CO)[C@@H](O)[C@H]2O)c(=O)[nH]1 [6-azauridine] | > 9
COc1c(C)c2c(c(O)c1C/C=C(\C)CCC(=O)O)C(=O)OC2 [Mycophenolic acid] | 7
O=c1[nH]c(=O)n([C@@H]2O[C@H](CO)[C@@H](O)[C@H]2O)cc1F [5-fluorouridine] | > 172
Nc1ccn([C@@H]2O[C@H](CO)[C@@H](O)[C@H]2F)c(=O)n1 [2′-deoxy-2′-fluorocytidine] | > 38
